Measurements reported in PubChem BioAssay AID1224833 (University of Georgia, 2016)

- Test: 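Host factors restraining rotavirus as candidate antiviral genes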 (primary screen)
- Cells: monkey MA104 kidney cells
- Reagent: siRNA pool against human genes, 50 nM
- Time to read-out: 48 h knock-down before infection; read 24 h after infection
- Conditions: infection with rotavirus strain RV3 two days after transfection; infectious dose for this stage not given
- Read-out: 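Rotavirus antigen per well by fluorescent immunoassay, normalised to non-targeting control wells on each plate and given as a standard z-score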
- Scale: z-score vs non-targeting control: higher = more rotavirus replication than with non-targeting control
- Call rule: In these data the active calls have z-score vs non-targeting control at about -1 or lower, or at about 1 or higher
- Calls: active = z-score beyond 1 either way; inactive = z-score within 1 of zero
Shown is an unselected part of about 12,000 deposited reagents. About 5,600 of all reagents (46%) were called active. 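Active calls cover z-scores past 1 in both directions, so they include lowered as well as raised rotavirus replication.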 Unmarked entries are inactive.

no.	gene	PubChem SID	z-score vs non-targeting control
1	DEAF1 (GeneID 10522)	SID329577212	1.1 (active)
2	TGFBRAP1 (GeneID 9392)	SID329576573	-0.748
3	HBB (GeneID 3043)	SID329573933	-0.923
4	DNAH7 (GeneID 56171)	SID329580005	-2.34 (active)
5	HSD17B12 (GeneID 51144)	SID329578932	0.742
6	NRG4 (GeneID 145957)	SID329582901	-0.209
7	RBMS2 (GeneID 5939)	SID329575094	-0.314
8	VPS37D (GeneID 155382)	SID329583122	-0.386
9	GFER (GeneID 2671)	SID329573752	-0.86
10	SUPT16H (GeneID 11198)	SID329577598	-3.31 (active)
11	NOP53 (GeneID 29997)	SID329578759	-1.61 (active)
12	SERTAD3 (GeneID 29946)	SID329578733	-0.421
13	LRRC31 (GeneID 79782)	SID329581003	0.676
14	ABR (GeneID 29)	SID329572661	-0.588
15	NNAT (GeneID 4826)	SID329574639	1.36 (active)
16	SLC25A37 (GeneID 51312)	SID329579016	-2.8 (active)
17	MRPS34 (GeneID 65993)	SID329580777	-1.95 (active)
18	RBBP5 (GeneID 5929)	SID329575086	-1.28 (active)
19	BANP (GeneID 54971)	SID329579496	-1.01 (active)
20	CELA1 (GeneID 1990)	SID329573517	0.86
21	TNFRSF13B (GeneID 23495)	SID329578017	-3.27 (active)
22	ZNF211 (GeneID 10520)	SID329577210	0.146
23	OR2V2 (GeneID 285659)	SID329583949	-0.546
24	PLVAP (GeneID 83483)	SID329581399	-0.612
25	VWA8 (GeneID 23078)	SID329577796	-0.0755
26	MYH6 (GeneID 4624)	SID329574523	1.52 (active)
27	TNN (GeneID 63923)	SID329580518	-1.16 (active)
28	PCED1A (GeneID 64773)	SID329580674	-0.635
29	ARFGEF3 (GeneID 57221)	SID329580210	-0.144
30	ARFGAP1 (GeneID 55738)	SID329579840	0.903
31	AUH (GeneID 549)	SID329572881	-1.36 (active)
32	CCDC71 (GeneID 64925)	SID329580719	1.24 (active)
33	KRT24 (GeneID 192666)	SID329583348	1.06 (active)
34	PDE12 (GeneID 201626)	SID329583436	0.809
35	MYH11 (GeneID 4629)	SID329574526	1.1 (active)
36	CCL4L1 (GeneID 388372)	SID329584321	-1.87 (active)
37	CCDC24 (GeneID 149473)	SID329582998	0.76
38	MOCS3 (GeneID 27304)	SID329578572	0.583
39	ST7L (GeneID 54879)	SID329579443	-1.14 (active)
40	PER3 (GeneID 8863)	SID329576324	0.639
41	ATP6V0A1 (GeneID 535)	SID329572877	-0.962
42	LASP1 (GeneID 3927)	SID329574280	-0.453
43	CDV3 (GeneID 55573)	SID329579754	1.9 (active)
44	ATG10 (GeneID 83734)	SID329581449	-2.04 (active)
45	ETS2 (GeneID 2114)	SID329573572	-1.12 (active)
46	LRATD1 (GeneID 151354)	SID329583042	-0.141
47	LY86 (GeneID 9450)	SID329576600	-0.567
48	OR4K14 (GeneID 122740)	SID329582447	1.54 (active)
49	VMA12 (GeneID 147007)	SID329582924	-1.05 (active)
50	ABHD12B (GeneID 145447)	SID329582888	-0.854
51	CD180 (GeneID 4064)	SID329574347	-0.576
52	TMEM50B (GeneID 757)	SID329572978	0.249
53	MPZ (GeneID 4359)	SID329574479	-1.77 (active)
54	GJA1 (GeneID 2697)	SID329573766	-2.84 (active)
55	NRSN1 (GeneID 140767)	SID329582821	-0.637
56	SPATA2L (GeneID 124044)	SID329582479	-0.764
57	ZNF219 (GeneID 51222)	SID329578972	-1.43 (active)
58	ANKRD46 (GeneID 157567)	SID329583127	-1.15 (active)
59	NOSTRIN (GeneID 115677)	SID329582276	-0.0887
60	PTGFRN (GeneID 5738)	SID329575012	2.94 (active)
61	RPSA (GeneID 3921)	SID329574278	-1.83 (active)
62	CA6 (GeneID 765)	SID329572984	0.644
63	MAGOH (GeneID 4116)	SID329574381	0.351
64	ZNF160 (GeneID 90338)	SID329581945	-1.21 (active)
65	TIMM8A (GeneID 1678)	SID329573398	-1.34 (active)
66	OR10G3 (GeneID 26533)	SID329578408	0.152
67	SERPINA11 (GeneID 256394)	SID329583744	-1.04 (active)
68	CRHBP (GeneID 1393)	SID329573254	0.469
69	ETV3 (GeneID 2117)	SID329573575	0.826
70	ZNF444 (GeneID 55311)	SID329579687	1.06 (active)
71	STARD8 (GeneID 9754)	SID329576772	0.819
72	BAG1 (GeneID 573)	SID329572888	1.5 (active)
73	MEF2D (GeneID 4209)	SID329574423	-1.24 (active)
74	OSMR (GeneID 9180)	SID329576464	0.782
75	AP3M2 (GeneID 10947)	SID329577443	-0.227

6 entries from above, arranged by “z-score vs non-targeting control”, high to low.
gene	PubChem SID	z-score vs non-targeting control
CDV3 (GeneID 55573)	SID329579754	1.9 (active)
LRATD1 (GeneID 151354)	SID329583042	-0.141
LASP1 (GeneID 3927)	SID329574280	-0.453
LY86 (GeneID 9450)	SID329576600	-0.567
ETS2 (GeneID 2114)	SID329573572	-1.12 (active)
ATG10 (GeneID 83734)	SID329581449	-2.04 (active)
